Results of unrelated studies side by side (data: NIAID ChemDB).

Shared fields: whole-cell or culture tests; organism: Mycobacterium avium; endpoint: MIC

Rows are shuffled and stem from different studies. An empty or dashed field is not shown.

SMILES,strain or isolate,mutations,method,conditions,result
N/C(=N\NC(CC(=O)c1ccccc1)c1ccccn1)c1ccccn1,485,,,,80 µg/mL
CCCCc1ccc(NC(=O)c2ccc(Cl)cc2O)cc1,MY330/88,,,,8 µM
O=[N+]([O-])c1ccc(Sc2nc3c(Br)c(Br)c(Br)c(Br)c3[nH]2)c([N+](=O)[O-])c1,MY330/88,,,,62.5 µM
CS(C)=O,A5,,resazurin,,>1 µg/mL
N/C(=N\NC(CC(=O)c1ccc(-c2ccccc2)cc1)c1ccncc1)c1ccccn1,485,,,,8 µg/mL
CCCCCCCOc1ccccc1NC(=O)OC(COCC)CN1CCCCC1,MY330/88,,,,250 µM
CCCCCCCCc1ccc(NC(=O)c2cc(Cl)ccc2O)cc1,MY330/88,,,,32 µM
FC(F)(F)C(F)(F)c1nc2cc(Cl)c(Cl)cc2[nH]1,MY330/88,,,,16 µM
Cc1ccc2[nH]c(=S)[nH]c2c1,MY330/88,,,,>500 µM
CCCCCOc1ccccc1NC(=O)OC(COCC)CN1CCCCC1,MY330/88,,,,250 µM
Cc1ccn2c(C(=O)NCc3cccc(OC(F)(F)F)c3)c(C)nc2c1,101,,resazurin,,<2 µM
CCCCCCCCCCCCNC[C@H]1O[C@H](O[C@H]2O[C@H](CNCCCCCCCCCCCC)[C@@H](O)[C@H](O)[C@H]2O)[C@H](O)[C@@H](O)[C@@H]1O,NJ3009,,,,8 µg/mL
Cc1ccc(O)c(C(=S)NCc2ccc(C(C)(C)C)cc2)c1,MY330/88,,,,1 µg/mL
CCCCC(CC)CNC[C@H]1O[C@H](O[C@H]2O[C@H](CO)[C@@H](O)[C@H](O)[C@H]2O)[C@H](O)[C@@H](O)[C@@H]1O,NJ168,,,,>128 µg/mL
COc1ccc(O)c(C(=O)NCc2cccc(Cl)c2)c1,MY330/88,,,,62.5 µg/mL
CCCOc1ccc(NC(=O)OCCN(C)C)cc1,MY330/88,,,,250 µM
Cc1ccc2nc(SCc3cccc(C#N)c3)[nH]c2c1,MY330/88,,,,125 µM
Cc1cn2c(C(=O)NCc3ccc(N4CCC(c5ccc(OC(F)(F)F)cc5)CC4)cc3)c(C)nc2s1,101,,resazurin,,<2 µM
Cc1ccc2nc(SCc3c(F)cccc3Cl)[nH]c2c1,MY330/88,,,,16 µM
N/C(=N\NC(CC(=O)c1ccc(Cl)cc1)c1ccccn1)c1ccccn1,485,,,,8 µg/mL
O=C(Nc1ccc(Cl)cc1)c1ccc(Cl)cc1OS(=O)(=O)c1ccccc1,330/88,,,21 d,8 µM
CCCCCCCc1ccc(NC(=O)c2cc(Cl)ccc2O)cc1,MY330/88,,,,8 µM
CC(C)CSc1ccnc(C(N)=S)c1,80/72,,,,1000 µM
Cc1ccc2nc(SCc3cccc(C(N)=S)c3)[nH]c2c1,MY330/88,,,,125 µM
Cc1cn2c(C(=O)NCc3ccc(N4CCN(c5ccc(C(F)(F)F)cn5)CC4)c(F)c3)c(C)nc2s1,104,Gentamicin-resistant,resazurin,,0.3125 µg/mL
[N-]=[N+]=NC[C@H]1O[C@H](O[C@H]2O[C@H](CN=[N+]=[N-])[C@@H](O)[C@H](O)[C@H]2O)[C@H](O)[C@@H](O)[C@@H]1O,NJ3404,,,,>128 µg/mL
CC(C)(C)n1cc(C(=O)O)c(=O)c2cc(F)c(N3CCNCC3)nc21,RG3,,,,0.5 µg/mL
CCOc1ccc(NC(=O)OCC[NH+]2CCCC2)cc1,MY330/88,,,,>1000 µM
O=C(Nc1ccc(F)cc1)c1cc(Cl)ccc1OS(=O)(=O)c1ccccc1,330/88,,,21 d,32 µM
CCCCCOc1cccc(NC(=O)OCCN2CCCCC2)c1,MY330/88,,,,32 µM
Cc1cccc(C(=O)CC(N/N=C(\N)c2ccccn2)c2cccnc2)c1,485,,,,16 µg/mL
NNC(=O)c1ccncc1,3337-4,,,,1.25 µg/mL
Oc1ccccc1C(=S)NCc1ccc(Cl)c(Cl)c1,MY330/88,,,,0.98 µg/mL
N/C(=N\NC(CC(=O)c1ccccc1)c1ccncc1)c1ccccn1,485,,,,16 µg/mL
CCCCCCOc1ccc(NC(=O)OC(C)CN2CCCCC2)cc1,MY330/88,,,,32 µM
CCCCCCCc1ccc(NC(=O)c2ccc(Cl)cc2O)cc1,MY330/88,,,,8 µM
O=C(Nc1cccc(Br)c1)c1cc(Cl)ccc1OS(=O)(=O)c1ccccc1,330/88,,,21 d,16 µM
FC(F)(F)C(F)(F)c1nc2c(Br)c(Br)c(Br)c(Br)c2[nH]1,MY330/88,,,,125 µM
CCCCCCCCCCCCCCCCCCN(C)C[C@H]1O[C@H](O[C@H]2O[C@H](CN(C)CCCCCCCCCCCCCCCCCC)[C@@H](O)[C@H](O)[C@H]2O)[C@H](O)[C@@H](O)[C@@H]1O,NJ211,,,,>128 µg/mL
Cc1cccc(C(N)=Nc2nc(-c3ccccn3)cc3ccccc23)c1,SK-10,,,,2 µg/mL
Cc1ccc2nc(SCc3cccc(F)c3)[nH]c2c1,MY330/88,,,,62 µM
CCCCCCCCCCSc1ccnc(C(N)=S)c1,80/72,,,,60 µM
CCCCC(CC)CNC[C@H]1O[C@H](O[C@H]2O[C@H](CNCC(CC)CCCC)[C@@H](O)[C@H](O)[C@H]2O)[C@H](O)[C@@H](O)[C@@H]1O,NJ3404,,,,64 µg/mL
CCCc1ccc(NC(=O)c2ccc(Cl)cc2O)cc1,MY330/88,,,,32 µM
CCOc1c(N2CCC(C(C)(C)N)C2)c(F)cc2c(=O)c(C(=O)O)cn(C3CC3)c12,101,,,,1 µg/mL
Cc1ccc(O)c(C(=O)NCc2ccc(C(C)(C)C)cc2)c1,MY330/88,,,,16 µg/mL
CCC(C)Sc1ccnc(C(N)=S)c1,80/72,,,,125 µM
Cc1ccc(CNC(=S)c2cc(C)ccc2O)cc1,MY330/88,,,,0.25 µg/mL
CCCCCCCCCCCCCCCCSc1ncnc2ccccc12,CNCTC MY80/72,,,,>1000 µM
N/C(=N\NC(CC(=O)c1ccc(Cl)c(Cl)c1)c1ccncc1)c1ccccn1,485,,,,8 µg/mL
CCCCCCCOc1ccccc1NC(=O)OCCN1CCCCC1,MY330/88,,,,32 µM
O=C(NCc1ccc(Br)cc1)c1ccc(Br)cc1O,MY330/88,,,,16 µg/mL
NC(=S)c1cc(SC2CCCCC2)ccn1,80/72,,,,60 µM
Cc1ccc2nc(C)c(C(=O)NCc3ccc(C(F)(F)F)cc3)n2c1,104,Gentamicin-resistant,resazurin,,0.0156 µg/mL
CCCCCCSc1ncnc2ccccc12,D 5/93,,,,63 µM
NC(N)=NC[C@H]1O[C@H](O[C@H]2O[C@H](CN=C(N)N)[C@@H](O)[C@H](O)[C@H]2O)[C@H](O)[C@@H](O)[C@@H]1O,NJ211,,,,>128 µg/mL
N/C(=N\NC(CC(=O)c1ccc(Cl)cc1)c1cccnc1)c1ccccn1,485,,,,80 µg/mL
CC(C)N=c1cc2n(-c3ccc(Cl)cc3)c3ccccc3nc-2cc1Nc1ccc(Cl)cc1,IWGMT49,,broth dilution,,0.06 µg/mL
CC(C)(C)c1ccc(NC(=O)c2cc(Cl)ccc2O)cc1,MY330/88,,,,32 µM
CC(C)Sc1ncnc2ccccc12,CNCTC MY66/72,,,,32 µM
Oc1ccccc1C(=S)NCc1ccccc1,MY330/88,,,,1 µg/mL
O=S(=O)(NC[C@H]1O[C@H](O[C@H]2O[C@H](CNS(=O)(=O)c3ccccc3)[C@@H](O)[C@H](O)[C@H]2O)[C@H](O)[C@@H](O)[C@@H]1O)c1ccccc1,NJ168,,,,>128 µg/mL
CCCCCOc1cccc(NC(=O)OCCN2CCOCC2)c1,MY330/88,,,,62.5 µM
c1ccc(CSc2ncnc3ccccc23)cc1,CNCTC MY80/72,,,,63 µM
Cc1ccc2nc(SCc3cccc(Cl)c3)[nH]c2c1,MY330/88,,,,32 µM
CCCCCCCc1ccc(NC(=O)c2cc(Br)cc(Br)c2O)cc1,MY330/88,,,,32 µM
O=C(Nc1cccc(Cl)c1)c1cc(Cl)ccc1OS(=O)(=O)c1ccccc1,330/88,,,14 d,32 µM
CCCCCCCCCOc1cccc(NC(=O)OCCN2CCOCC2)c1,MY330/88,,,,32 µM
CCCCOc1ccc(NC(=O)OC(C)CN2CCCCC2)cc1,MY330/88,,,,125 µM
O=[N+]([O-])c1cc(Sc2nc3ccc(Br)cc3[nH]2)cc([N+](=O)[O-])c1,MY330/88,,,,62.5 µM
CCCCCCc1ccc(NC(=O)c2cc(Br)ccc2O)cc1,MY330/88,,,,8 µM
CCCCCOc1cccc(NC(=O)OC(COCC)CN2CCCCC2)c1,MY330/88,,,,32 µM

A second listing of 7 rows from above:

SMILES | strain or isolate | mutations | method | conditions | result
Cc1ccc2nc(SCc3cccc(Cl)c3)[nH]c2c1 | MY330/88 |  |  |  | 32 µM
Cc1ccc2nc(SCc3cccc(C(N)=S)c3)[nH]c2c1 | MY330/88 |  |  |  | 125 µM
FC(F)(F)C(F)(F)c1nc2c(Br)c(Br)c(Br)c(Br)c2[nH]1 | MY330/88 |  |  |  | 125 µM
CCCCCCCCCCCCCCCCCCN(C)C[C@H]1O[C@H](O[C@H]2O[C@H](CN(C)CCCCCCCCCCCCCCCCCC)[C@@H](O)[C@H](O)[C@H]2O)[C@H](O)[C@@H](O)[C@@H]1O | NJ211 |  |  |  | >128 µg/mL
O=S(=O)(NC[C@H]1O[C@H](O[C@H]2O[C@H](CNS(=O)(=O)c3ccccc3)[C@@H](O)[C@H](O)[C@H]2O)[C@H](O)[C@@H](O)[C@@H]1O)c1ccccc1 | NJ168 |  |  |  | >128 µg/mL
Cc1ccc(O)c(C(=S)NCc2ccc(C(C)(C)C)cc2)c1 | MY330/88 |  |  |  | 1 µg/mL
CC(C)(C)c1ccc(NC(=O)c2cc(Cl)ccc2O)cc1 | MY330/88 |  |  |  | 32 µM